Laboratory results: PubChem BioAssay AID504761 (Drosophila RNAi Screening Center, 2011)
The deposit covers about 22,000 reagents; below is a random part of those with a known target gene and a result. Of all reagents, 116 (0.52%) got an active call. 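Calls depend on retest data that are not deposited; infection was ranked per plate without normalising between plates; the unit of the infection score is not given.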 The raw values are shown without normalisation. Unmarked entries are inactive. A plus sign joins genes that one reagent is predicted to hit. Not all columns of the deposit are shown. The record does not give: the amount of reagent, the time to read-out.

Assay: 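Insect host genes that dengue virus relies on to spread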 (primary screen)
Cell system: D.Mel-2 cells from Drosophila
Reagent: long dsRNA against Drosophila genes
Conditions: infection with dengue virus type 2; dose and infection time not stated
Detection: 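Per well on two replicate plates, imaging gave the percent of cells positive for viral envelope protein, ranked by infection, and a nuclear count of cells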
Direction: infection score: higher = more virus-infected cells; cell count: higher = more cells in the well
Call rule: 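Low infection ranks in the two replicates (chance level up to 0.065) followed by a retest with a 1.5-fold or larger significant decrease, p below 0.05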
Meaning of the calls: active = confirmed: knock-down lowers infection; inactive = not picked or not confirmed

Depletion of nom [DRSC16389] resulted in: infection score, replicate 1 = 4.23; cell count, replicate 1 = 6077.
Silencing of nom [DRSC26026] gave: infection score, replicate 1 = 12.8; cell count, replicate 1 = 5324.
CG15514 [DRSC15053] showed infection score, replicate 1 = 5.76; cell count, replicate 1 = 5802.
Knock-down of CG15514 [DRSC29785] came out at: infection score, replicate 1 = 13.2; cell count, replicate 1 = 5550.
Against CG32023 [DRSC08946], the entry reads infection score, replicate 1 = 3.13; cell count, replicate 1 = 6079.
CG18631 (retired record) [DRSC06779] showed infection score, replicate 1 = 35.1; cell count, replicate 1 = 5747.
With knock-down of CG18631 (retired record) [DRSC26325] the results were infection score, replicate 1 = 4.94; cell count, replicate 1 = 5954.
After knock-down of CG12983 [DRSC11692], the record shows infection score, replicate 1 = 6.19; cell count, replicate 1 = 6676.

Ordered by “infection score, replicate 1” (low to high): 2 of the entries above.
CG32023 [DRSC08946] → infection score, replicate 1 = 3.13; cell count, replicate 1 = 6079
CG18631 (retired record) [DRSC06779] → infection score, replicate 1 = 35.1; cell count, replicate 1 = 5747

More entries:
With knock-down of Spt6 [DRSC18836] the results were infection score, replicate 1 = 21.7; cell count, replicate 1 = 4222.
With knock-down of CG11413 + CG4622 [DRSC04109] the results were infection score, replicate 1 = 19.9; cell count, replicate 1 = 5202.
CG11413 + CG4622 [DRSC26158] showed infection score, replicate 1 = 9.31; cell count, replicate 1 = 6262.
CG14647 [DRSC12233] scored infection score, replicate 1 = 7.72; cell count, replicate 1 = 6631.
For CG14647 [DRSC22497], the entry reads infection score, replicate 1 = 2.85; cell count, replicate 1 = 6095.
After knock-down of Pex14 [DRSC11754] the results were infection score, replicate 1 = 9.42; cell count, replicate 1 = 6093.
Knock-down of Pex14 [DRSC28339] came out at: infection score, replicate 1 = 13.2; cell count, replicate 1 = 5712.
